Measured values from several laboratories, pooled; numbers as filed in NIAID ChemDB.

Common to all: growth or infection tests; organism: Staphylococcus aureus; endpoint: MIC

Rows are shuffled and stem from different studies.

compound	strain or isolate	result
CN(C)c1cc(CNCc2ccccc2)c(O)c2c1C[C@H]1C[C@H]3[C@H](N(C)C)C(=O)C(C(N)=O)=C(O)[C@@]3(O)C(=O)C1=C2O	MRSA5 (methicillin-resistant)	0.5 µg/mL
CC[C@H]1OC(=O)[C@@](C)(F)C(=O)[C@H](C)[C@@H](O[C@@H]2O[C@H](C)C[C@H](N(C)C)[C@H]2O)[C@@]2(C)C[C@@H](C)C(=NC(C)=O)[C@H](C)[C@@H](OC/C(=N\OCc3cccc(C(N)=O)c3)CO2)[C@]1(C)O	29213 (erythromycin A-susceptible)	0.25 µg/mL
O=C(CCOc1ccc(Cl)cc1Cl)NC[C@H]1CN(c2ccc(N3CCOCC3)c(F)c2)C(=O)O1	ATCC 29213 (linezolid-resistant)	>32 µg/mL
CCNCCNc1cc2c(cc1F)c(=O)c(C(=O)O)cn2C1CC1	ATCC 5278 (methicillin-resistant)	>100 µg/mL
CC(=O)NC[C@H]1CN(c2ccc(NC(=O)c3ccc(/C=N/O)o3)c(F)c2)C(=O)O1	ATCC 29213 (linezolid-resistant)	>64 µg/mL
C=CC(=O)NC[C@H]1CN(c2ccc(C3CCS(=O)(=O)CC3)c(F)c2)C(=O)O1	UC 12673	2 µg/mL
C[C@H]1NCc2cc(-c3ccc4c(=O)c(C(=O)O)cn(C5CC5)c4c3OC(F)F)ccc21	A15090 (methicillin-susceptible)	0.03 µg/mL
CC(=O)NCC1CN(c2ccc(N3CCCCC3)c(F)c2)C(=O)O1	ATCC 29213 (linezolid-resistant)	>64 µg/mL
CC[C@H]1OC(=O)[C@@](C)(F)C(=O)[C@H](C)[C@@H](O[C@@H]2O[C@H](C)C[C@H](N(C)C)[C@H]2O)[C@@]2(C)C[C@@H](C)C(=NC(C)=O)[C@H](C)[C@@H](OC/C(=N\OCc3ccc(-n4cccn4)nc3)CO2)[C@]1(C)O	29213 (erythromycin A-susceptible)	0.25 µg/mL
CNC(=O)CC1NC(=O)c2csc(n2)-c2ccc(-c3nc(C(=O)NCCCCCC(=O)O)cs3)nc2-c2csc(n2)-c2csc(n2)C(C(O)c2ccccc2)NC(=O)CNC(=O)c2nc(sc2CSc2ccc(C(=O)O)cn2)C(C(C)C)NC(=O)c2nc1sc2C	ATCC 33591 (methicillin-resistant)	0.5 µg/mL
CN(C)[C@@H]1C(=O)C(C(N)=O)=C(O)[C@@]2(O)C(=O)C3=C(O)c4c(O)ccc(-c5ccc6c(c5)OCO6)c4C[C@H]3C[C@@H]12	MRSA5 (methicillin-resistant)	0.5 µg/mL
CNC1CN(c2c(F)cn3c(=O)c(C(=O)O)cc(C4CC4)c3c2C)CC1C	NCTC 10649M	0.02 µg/mL
COC(CNc1cc2c(cc1F)c(=O)c(C(=O)O)cn2C1CC1)OC	ATCC 6538P	>100 µg/mL
CNC(=O)CC1NC(=O)c2csc(n2)-c2ccc(-c3nc(C(=O)NCCC(=O)OC(C)(C)C)cs3)nc2-c2csc(n2)-c2csc(n2)C(C(O)c2ccccc2)NC(=O)CNC(=O)c2nc(sc2CSSc2nc3ccccc3s2)C(C(C)C)NC(=O)c2nc1sc2C	ATCC 33591 (methicillin-resistant)	0.13 µg/mL
Cc1c(N2CC(N)C(C3CC3)C2)c(F)cn2c(=O)c(C(=O)O)cc(C3CC3)c12	NCTC 10649M	0.01 µg/mL
CC(=O)NC[C@H]1CN(c2ccc(N(C)C(=O)c3ccc([N+](=O)[O-])o3)c(F)c2)C(=O)O1	ATCC 29213 (linezolid-resistant)	16 µg/mL
O=C(/C=C/c1ccncc1)NC[C@H]1CN(c2ccc(N3CCOCC3)c(F)c2)C(=O)O1	ATCC 29213 (linezolid-resistant)	>64 µg/mL
CN1COc2c(N3CC4C5CCC(N)(CC5)C4C3)c(F)c(N)c3c(=O)c(C(=O)O)cn1c23	133	0.031 µg/mL
C=C1COC2[C@@H](C)C(=NC(C)=O)[C@H](C)C[C@@](C)(OC1)[C@H](O[C@@H]1O[C@H](C)C[C@H](N(C)C)[C@H]1O)[C@@H](C)C(=O)[C@@H](C)C(=O)O[C@H](CC)[C@@]2(C)O	27660 (erythromycin-resistant)	2 µg/mL
CC(=O)NC[C@H]1CN(c2ccc(-n3cnc(C=CC#N)c3)c(F)c2)C(=O)O1	Oxford	0.125 µg/mL
CNC(=O)CC1NC(=O)c2csc(n2)-c2ccc(-c3nc(C(=O)NCCC(=O)OC(C)(C)C)cs3)nc2-c2csc(n2)-c2csc(n2)C(C(O)c2ccccc2)NC(=O)CNC(=O)c2nc(sc2CSSC(C)=O)C(C(C)C)NC(=O)c2nc1sc2C	ATCC 33591 (methicillin-resistant)	1 µg/mL
CC(=O)NC[C@H]1CN(c2ccc(NC(=O)c3cc4ccccc4o3)c(F)c2)C(=O)O1	ATCC 29213 (linezolid-resistant)	>64 µg/mL
O=C(C(O)Cn1cccc1)N1CC=C(c2ccc(N3C[C@H](COc4ccon4)OC3=O)cc2F)CC1	004 (methicillin quinolone-resistant)	2 µg/mL
CNC(=O)CC1NC(=O)c2csc(n2)-c2ccc(-c3nc(C(=O)NCCC(=O)OC(C)(C)C)cs3)nc2-c2csc(n2)-c2csc(n2)C(C(O)c2ccccc2)NC(=O)CNC(=O)c2nc(sc2CSSC)C(C(C)C)NC(=O)c2nc1sc2C	ATCC 33591 (methicillin-resistant)	0.125 µg/mL
CC[C@H]1OC(=O)[C@@](C)(F)C(=O)[C@H](C)[C@@H](O[C@@H]2O[C@H](C)C[C@H](N(C)C)[C@H]2O)[C@@]2(C)C[C@@H](C)C(=NC(C)=O)[C@H](C)[C@@H](OC/C(=N\OCc3ccc(N)nc3)CO2)[C@]1(C)O	33591 (erythromycin methicillin-resistant)	>64 µg/mL
CNC(=O)c1ccc(N2C[C@H](CNC(C)=O)OC2=O)cc1F	ATCC 29213 (linezolid-resistant)	>64 µg/mL
O=C(C(O)Sc1ccccn1)N1CC=C(c2c(F)cc(N3C[C@H](COc4ccon4)OC3=O)cc2F)CC1	122 (novobiocin-resistant)	1 µg/mL
CC(=O)NC[C@H]1CN(c2ccc(C(=O)N(C)C)c(F)c2)C(=O)O1	ATCC 29213 (linezolid-resistant)	>64 µg/mL
CNC(=O)CC1NC(=O)c2csc(n2)-c2ccc(-c3nc(C(=O)NCCC(=O)OC(C)(C)C)cs3)nc2-c2csc(n2)-c2csc(n2)C(C(O)c2ccccc2)NC(=O)CNC(=O)c2nc(sc2CSSC(=S)c2cnc[nH]2)C(C(C)C)NC(=O)c2nc1sc2C	ATCC 33591 (methicillin-resistant)	4 µg/mL
O=C(/C=C/c1ccc(Cl)cc1Cl)NC[C@H]1CN(c2ccc(N3CCOCC3)c(F)c2)C(=O)O1	ATCC 29213 (linezolid-resistant)	>16 µg/mL
CSCC(=O)NC[C@H]1CN(c2ccc(C(N)=O)c(F)c2)C(=O)O1	ATCC 29213 (linezolid-resistant)	>64 µg/mL
CSCc1cccc(N2CCN(c3cc4nc5c(cc4cc3F)c(=O)c(C(=O)O)cn5C)CC2)c1	LF11C128 (quinolone-resistant)	4 µg/mL
CC[C@H]1OC(=O)[C@H](C)C(=O)[C@H](C)[C@@H](O[C@@H]2O[C@H](C)C[C@H](N(C)C)[C@H]2O)[C@@]2(C)C[C@@H](C)C(=NC(C)=O)[C@H](C)C(OC/C(=C\C=C\c3ccccc3)CO2)[C@]1(C)O	29213 (erythromycin-susceptible)	0.5 µg/mL
O=C1O[C@@H](COc2ccccn2)CN1c1ccc(C2=CCOCC2)c(F)c1	078 (oxford)	0.5 µg/mL
Cc1c(N2C[C@H](C3CC3)[C@@H](N)C2)c(F)cn2c(=O)c(C(=O)O)cc(C3CC3)c12	NCTC 10649M	0.02 µg/mL
Nc1ccc(OC[C@H]2CN(c3ccc(C4=CCOCC4)c(F)c3)C(=O)O2)cn1	078 (oxford)	2 µg/mL
CCC(=O)N=C1[C@H](C)C[C@@]2(C)OC/C(=C/C=C/c3ccccc3)COC([C@H]1C)[C@](C)(O)[C@@H](CC)OC(=O)[C@H](C)C(=O)[C@H](C)[C@H]2O[C@@H]1O[C@H](C)C[C@H](N(C)C)[C@H]1O	33591 (erythromycin methicillin-resistant)	>64 µg/mL
CC[C@H]1OC(=O)[C@@](C)(F)C(=O)[C@H](C)[C@@H](O[C@@H]2O[C@H](C)C[C@H](N(C)C)[C@H]2O)[C@@]2(C)C[C@@H](C)C(=NC(C)=O)[C@H](C)[C@@H](OC/C(=N\OCC#Cc3cccc(N)n3)CO2)[C@]1(C)O	27660 (erythromycin A -resistant)	<0.06 µg/mL
CC[C@H]1OC(=O)[C@H](C)C(=O)[C@H](C)[C@@H](O[C@@H]2O[C@H](C)C[C@H](N(C)C)[C@H]2O)[C@@]2(C)C[C@@H](C)C(=NC(C)=O)[C@H](C)C(OC/C(=C\c3ccccc3)CO2)[C@]1(C)O	27660 (erythromycin-resistant)	0.5 µg/mL
CCC(N)CCNc1cc2c(cc1F)c(=O)c(C(=O)O)cn2C1CC1	ATCC 6538P	1.56 µg/mL
O=C1O[C@@H](COc2cccnn2)CN1c1ccc(C2=CCOCC2)c(F)c1	004 (methicillin quinolone-resistant)	0.5 µg/mL
CC(=O)NC[C@H]1CN(c2ccc(C(=O)Nc3nncs3)c(F)c2)C(=O)O1	ATCC 29213 (linezolid-resistant)	>64 µg/mL
CC(O)CNc1cc2c(cc1F)c(=O)c(C(=O)O)cn2C1CC1	ATCC 5278 (methicillin-resistant)	>100 µg/mL
CC(=O)NC[C@H]1CN(c2ccc(C(=O)N3CCOCC3)c(F)c2)C(=O)O1	ATCC 29213 (linezolid-resistant)	>64 µg/mL
CN(C)CCCN(C)c1cc2c(cc1F)c(=O)c(C(=O)O)cn2C1CC1	ATCC 5278 (methicillin-resistant)	1.56 µg/mL
O=C(NC[C@H]1CN(c2ccc(C3CCS(=O)(=O)CC3)c(F)c2)C(=O)O1)C1CC1	UC9213	8 µg/mL
Cc1ccc(-c2ccc(O)c3c2C[C@H]2C[C@H]4[C@H](N(C)C)C(=O)C(C(N)=O)=C(O)[C@@]4(O)C(=O)C2=C3O)cc1N	MRSA5 (methicillin-resistant)	0.25 µg/mL
CNC(=O)CC1NC(=O)c2csc(n2)-c2ccc(-c3nc(C(=O)NCCCCCC(=O)O)cs3)nc2-c2csc(n2)-c2csc(n2)C(C(O)c2ccccc2)NC(=O)CNC(=O)c2nc(sc2CO)C(C(C)C)NC(=O)c2nc1sc2C	ATCC 33591 (methicillin-resistant)	0.25 µg/mL
CC1=NN=C(OC[C@H]2CN(c3ccc(C4=CCOCC4)c(F)c3)C(=O)O2)C1	078 (oxford)	4 µg/mL
CNC(=O)CC1NC(=O)c2csc(n2)-c2ccc(-c3nc(C(=O)NCCC(=O)OC(C)(C)C)cs3)nc2-c2csc(n2)-c2csc(n2)C(C(O)c2ccccc2)NC(=O)CNC(=O)c2nc(sc2CSSc2ncnc3nc[nH]c23)C(C(C)C)NC(=O)c2nc1sc2C	ATCC 33591 (methicillin-resistant)	0.5 µg/mL
CC[C@H]1OC(=O)[C@@](C)(F)C(=O)[C@H](C)[C@@H](O[C@@H]2O[C@H](C)C[C@H](N(C)C)[C@H]2O)[C@@]2(C)C[C@@H](C)C(=NC(C)=O)[C@H](C)[C@@H](OC/C(=N\OCc3ccc(C(N)=O)cc3)CO2)[C@]1(C)O	27660 (erythromycin A -resistant)	0.13 µg/mL
O=C(CCc1ccccc1)NC[C@H]1CN(c2ccc(N3CCOCC3)c(F)c2)C(=O)O1	ATCC 29213 (linezolid-resistant)	>64 µg/mL
CN(C)[C@@H]1C(=O)C(C(N)=O)=C(O)[C@@]2(O)C(=O)C3=C(O)c4c(O)ccc(-c5ccc(F)cc5)c4C[C@H]3C[C@@H]12	MRSA5 (methicillin-resistant)	0.25 µg/mL
CSc1ccc(C(=O)Nc2ccc(N3C[C@H](CNC(C)=O)OC3=O)cc2F)o1	ATCC 29213 (linezolid-resistant)	>64 µg/mL
O=C(O)c1cn(C2CC2)c2cc(N3CCOCC3)c(F)cc2c1=O	ATCC 6538P	1.56 µg/mL
CSCC(=O)NC[C@H]1CN(c2ccc(C(=O)Nc3ccc(Cl)nc3)c(F)c2)C(=O)O1	ATCC 29213 (linezolid-resistant)	>64 µg/mL

The last 6 rows once more:

compound	strain or isolate	result
CC[C@H]1OC(=O)[C@@](C)(F)C(=O)[C@H](C)[C@@H](O[C@@H]2O[C@H](C)C[C@H](N(C)C)[C@H]2O)[C@@]2(C)C[C@@H](C)C(=NC(C)=O)[C@H](C)[C@@H](OC/C(=N\OCc3ccc(C(N)=O)cc3)CO2)[C@]1(C)O	27660 (erythromycin A -resistant)	0.13 µg/mL
O=C(CCc1ccccc1)NC[C@H]1CN(c2ccc(N3CCOCC3)c(F)c2)C(=O)O1	ATCC 29213 (linezolid-resistant)	>64 µg/mL
CN(C)[C@@H]1C(=O)C(C(N)=O)=C(O)[C@@]2(O)C(=O)C3=C(O)c4c(O)ccc(-c5ccc(F)cc5)c4C[C@H]3C[C@@H]12	MRSA5 (methicillin-resistant)	0.25 µg/mL
CSc1ccc(C(=O)Nc2ccc(N3C[C@H](CNC(C)=O)OC3=O)cc2F)o1	ATCC 29213 (linezolid-resistant)	>64 µg/mL
O=C(O)c1cn(C2CC2)c2cc(N3CCOCC3)c(F)cc2c1=O	ATCC 6538P	1.56 µg/mL
CSCC(=O)NC[C@H]1CN(c2ccc(C(=O)Nc3ccc(Cl)nc3)c(F)c2)C(=O)O1	ATCC 29213 (linezolid-resistant)	>64 µg/mL